Source: PubChem BioAssay AID504761 (Drosophila RNAi Screening Center, 2011)
Assay: 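Genome-wide fly cell screen for genes dengue virus requires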 (primary screen). System: D.Mel-2 cells from Drosophila. Knock-down reagent: long dsRNA against Drosophila genes. Challenge: infection with dengue virus type 2; dose and infection time not stated. Detection: 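Cells stained for dengue envelope protein and imaged; percent of infected cells per well on duplicate plates, ranked by infection, with stained nuclei counted for cell number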. Scale: infection score: higher = more virus-infected cells; cell count: higher = more cells in the well. Rule for the call: 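Low infection ranks in the two replicates (chance level up to 0.065) followed by a retest with a 1.5-fold or larger significant decrease, p below 0.05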. Meaning of the calls: active = confirmed: knock-down lowers infection; inactive = not picked or not confirmed.
The deposit covers about 22,000 reagents; this is an unselected part of those that have a named target and a result. Over the whole deposit, 116 (0.52%) got an active call. 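Calls depend on retest data that are not deposited; infection was ranked per plate without normalising between plates; the unit of the infection score is not given.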 Raw values are not corrected between plates. A plus sign joins genes that one reagent is predicted to hit. Not stated in the record: the amount of reagent, the time to read-out.

no.	gene	dsRNA	infection score, replicate 1	infection score, replicate 2	cell count, replicate 1	cell count, replicate 2	Call
1	Grl36a (Gustatory receptor-like 36a)	DRSC21748	15.2	5.96	6261	6474	inactive
2	heix (heixuedian)	DRSC03542	16.3	10.1	6168	6100	inactive
3	CG8565	DRSC20112	3.31	9.4	6640	6200	inactive
4	vri (vrille)	DRSC23174	4.44	14.5	5611	5835	inactive
5	vri (vrille)	DRSC26054	3.92	2.41	6024	6179	inactive
6	CG5556	DRSC00687	0.97	7.5	6477	6682	inactive
7	CG10874	DRSC00297	0.27	2.47	366	6362	inactive
8	CG10874	DRSC26108	10.9	12.3	5613	5588	inactive
9	CG14000 + bchs	DRSC02333	3.56	3.71	6097	6585	inactive
10	IP3K1 + hpRNA:CR18854	DRSC23313	0.73	11.1	6583	6627	inactive
11	yip3 (yippee interacting protein 3)	DRSC04724	9.15	10.5	6076	6173	inactive
12	sphinx2	DRSC22188	4.93	3.78	6331	6184	inactive
13	sphinx2	DRSC24771	2.47	2.36	6678	6870	inactive
14	CG6602	DRSC10673	3.59	2	5966	5898	inactive
15	fru (fruitless)	DRSC16953	7.33	3.54	6688	6859	inactive
16	fru (fruitless)	DRSC24960	3.24	5.35	5842	6112	inactive
17	snz (snazarus)	DRSC17969	3.53	3.21	6318	6568	inactive
18	CG14204	DRSC19559	4.68	1.59	6369	6153	inactive
19	CG14204	DRSC29941	9.2	1.91	5563	6189	inactive
20	CG11836	DRSC14396	3.93	6.04	6256	6462	inactive
21	CG3281	DRSC15470		9.08	429	5344	inactive
22	CG3281	DRSC28414	1.29	2.44	2395	2585	active
23	CG13113	DRSC02211	2.51	0.15	6252	679	inactive
24	Sk2 (Sphingosine kinase 2)	DRSC08556	3.98	5.06	6005	6702	inactive
25	CG17999	DRSC04300	7.34	18.7	6021	5688	inactive
26	Uro (Urate oxidase)	DRSC03469	12	24.6	6648	3718	inactive
27	garz (gartenzwerg)	DRSC07193	6.04	2.95	2862	4235	inactive
28	E(spl)malpha-BFM (Enhancer of split malpha, Bearded family member)	DRSC16994	6.99	9.07	6148	6723	inactive
29	E(spl)malpha-BFM (Enhancer of split malpha, Bearded family member)	DRSC28358	14.7	19.4	5256	4583	inactive
30	Wdr82 (WD repeat domain 82)	DRSC02595	0.95	15	6433	5548	inactive
31	Wdr82 (WD repeat domain 82)	DRSC21723	2.73		878	352	inactive
32	COX5B (Cytochrome c oxidase subunit 5B)	DRSC02115	3.53	4.84	6167	6504	inactive
33	nmo (nemo)	DRSC08902	1.81	2.5	6251	5610	inactive
34	nmo (nemo)	DRSC11377	7.75	3.44	6335	6489	inactive
35	nmo (nemo)	DRSC27949	10.4	3.52	6313	6310	inactive
36	bbc (bb in a boxcar)	DRSC06958	2.36	6.74	6346	6812	inactive
37	bbc (bb in a boxcar)	DRSC22309	2.06	7.34	6028	6618	inactive
38	Dtd (D-aminoacyl-tRNA deacylase)	DRSC15362	12	19.6	6678	6997	inactive
39	mtDNA-helicase (mitochondrial DNA helicase)	DRSC02912	4.06	2.09	6305	6370	inactive
40	Pus1 (Pseudouridine synthase 1)	DRSC15548		20.1	375	7273	inactive
41	Pus1 (Pseudouridine synthase 1)	DRSC27461	36.6	25.7	6171	5872	inactive
42	e(y)3 (enhancer of yellow 3)	DRSC19450	26.5	16.6	6061	6045	inactive
43	e(y)3 (enhancer of yellow 3)	DRSC23698	11.6	8.91	5266	5407	inactive
44	CG8172	DRSC07089	8.66	21.4	2680	6047	inactive
45	CG8172	DRSC22113	6.42	6.9	6640	6235	inactive
46	CG8172	DRSC25604	4.24	2.06	6833	6172	inactive
47	CG31601	DRSC03678	4.91	1.15	6066	5742	inactive
48	kek6 (kekkon 6)	DRSC15299		8.01	338	6121	inactive
49	kek6 (kekkon 6)	DRSC23759	1.8	5.66	5938	5933	inactive
50	Ca-beta (Ca2+-channel-protein-beta-subunit)	DRSC02406			595	495	inactive
51	Ca-beta (Ca2+-channel-protein-beta-subunit)	DRSC02407		4.47	412	739	inactive
52	Ca-beta (Ca2+-channel-protein-beta-subunit)	DRSC03285			425	409	inactive
53	Ca-beta (Ca2+-channel-protein-beta-subunit)	DRSC21432	1.23	4.04	6035	6443	inactive
54	Ca-beta (Ca2+-channel-protein-beta-subunit)	DRSC23813	11.8	21.4	6317	5991	inactive
55	CG15625	DRSC00460	4.69	3.04	2241	6021	inactive
56	CG15625	DRSC29231	9.27	8.88	1338	5971	inactive
57	Jon99Ciii + Jon99Fi + Jon99Fii + 1 more	DRSC29104	16.3	18.5	4491	5344	inactive
58	inaD (inactivation no afterpotential D)	DRSC04694		8.41	393	832	inactive
59	inaD (inactivation no afterpotential D)	DRSC27116	30.4	3.49	5799	6126	inactive

3 entries from above, arranged by “cell count, replicate 1”, highest first:
gene	dsRNA	infection score, replicate 1	infection score, replicate 2	cell count, replicate 1	cell count, replicate 2	Call
Ca-beta (Ca2+-channel-protein-beta-subunit)	DRSC23813	11.8	21.4	6317	5991	inactive
Ca-beta (Ca2+-channel-protein-beta-subunit)	DRSC21432	1.23	4.04	6035	6443	inactive
Ca-beta (Ca2+-channel-protein-beta-subunit)	DRSC03285			425	409	inactive
